Experimental data published in publication PMC8565742 (PLoS Neglected Tropical Diseases, 2021).
pEC50: −log10 of the molar value.

Amino acid sequences for entries named in this document (tags omitted). Residues count along the entry.
UniProt A0A5K4F0X5, 1-2268: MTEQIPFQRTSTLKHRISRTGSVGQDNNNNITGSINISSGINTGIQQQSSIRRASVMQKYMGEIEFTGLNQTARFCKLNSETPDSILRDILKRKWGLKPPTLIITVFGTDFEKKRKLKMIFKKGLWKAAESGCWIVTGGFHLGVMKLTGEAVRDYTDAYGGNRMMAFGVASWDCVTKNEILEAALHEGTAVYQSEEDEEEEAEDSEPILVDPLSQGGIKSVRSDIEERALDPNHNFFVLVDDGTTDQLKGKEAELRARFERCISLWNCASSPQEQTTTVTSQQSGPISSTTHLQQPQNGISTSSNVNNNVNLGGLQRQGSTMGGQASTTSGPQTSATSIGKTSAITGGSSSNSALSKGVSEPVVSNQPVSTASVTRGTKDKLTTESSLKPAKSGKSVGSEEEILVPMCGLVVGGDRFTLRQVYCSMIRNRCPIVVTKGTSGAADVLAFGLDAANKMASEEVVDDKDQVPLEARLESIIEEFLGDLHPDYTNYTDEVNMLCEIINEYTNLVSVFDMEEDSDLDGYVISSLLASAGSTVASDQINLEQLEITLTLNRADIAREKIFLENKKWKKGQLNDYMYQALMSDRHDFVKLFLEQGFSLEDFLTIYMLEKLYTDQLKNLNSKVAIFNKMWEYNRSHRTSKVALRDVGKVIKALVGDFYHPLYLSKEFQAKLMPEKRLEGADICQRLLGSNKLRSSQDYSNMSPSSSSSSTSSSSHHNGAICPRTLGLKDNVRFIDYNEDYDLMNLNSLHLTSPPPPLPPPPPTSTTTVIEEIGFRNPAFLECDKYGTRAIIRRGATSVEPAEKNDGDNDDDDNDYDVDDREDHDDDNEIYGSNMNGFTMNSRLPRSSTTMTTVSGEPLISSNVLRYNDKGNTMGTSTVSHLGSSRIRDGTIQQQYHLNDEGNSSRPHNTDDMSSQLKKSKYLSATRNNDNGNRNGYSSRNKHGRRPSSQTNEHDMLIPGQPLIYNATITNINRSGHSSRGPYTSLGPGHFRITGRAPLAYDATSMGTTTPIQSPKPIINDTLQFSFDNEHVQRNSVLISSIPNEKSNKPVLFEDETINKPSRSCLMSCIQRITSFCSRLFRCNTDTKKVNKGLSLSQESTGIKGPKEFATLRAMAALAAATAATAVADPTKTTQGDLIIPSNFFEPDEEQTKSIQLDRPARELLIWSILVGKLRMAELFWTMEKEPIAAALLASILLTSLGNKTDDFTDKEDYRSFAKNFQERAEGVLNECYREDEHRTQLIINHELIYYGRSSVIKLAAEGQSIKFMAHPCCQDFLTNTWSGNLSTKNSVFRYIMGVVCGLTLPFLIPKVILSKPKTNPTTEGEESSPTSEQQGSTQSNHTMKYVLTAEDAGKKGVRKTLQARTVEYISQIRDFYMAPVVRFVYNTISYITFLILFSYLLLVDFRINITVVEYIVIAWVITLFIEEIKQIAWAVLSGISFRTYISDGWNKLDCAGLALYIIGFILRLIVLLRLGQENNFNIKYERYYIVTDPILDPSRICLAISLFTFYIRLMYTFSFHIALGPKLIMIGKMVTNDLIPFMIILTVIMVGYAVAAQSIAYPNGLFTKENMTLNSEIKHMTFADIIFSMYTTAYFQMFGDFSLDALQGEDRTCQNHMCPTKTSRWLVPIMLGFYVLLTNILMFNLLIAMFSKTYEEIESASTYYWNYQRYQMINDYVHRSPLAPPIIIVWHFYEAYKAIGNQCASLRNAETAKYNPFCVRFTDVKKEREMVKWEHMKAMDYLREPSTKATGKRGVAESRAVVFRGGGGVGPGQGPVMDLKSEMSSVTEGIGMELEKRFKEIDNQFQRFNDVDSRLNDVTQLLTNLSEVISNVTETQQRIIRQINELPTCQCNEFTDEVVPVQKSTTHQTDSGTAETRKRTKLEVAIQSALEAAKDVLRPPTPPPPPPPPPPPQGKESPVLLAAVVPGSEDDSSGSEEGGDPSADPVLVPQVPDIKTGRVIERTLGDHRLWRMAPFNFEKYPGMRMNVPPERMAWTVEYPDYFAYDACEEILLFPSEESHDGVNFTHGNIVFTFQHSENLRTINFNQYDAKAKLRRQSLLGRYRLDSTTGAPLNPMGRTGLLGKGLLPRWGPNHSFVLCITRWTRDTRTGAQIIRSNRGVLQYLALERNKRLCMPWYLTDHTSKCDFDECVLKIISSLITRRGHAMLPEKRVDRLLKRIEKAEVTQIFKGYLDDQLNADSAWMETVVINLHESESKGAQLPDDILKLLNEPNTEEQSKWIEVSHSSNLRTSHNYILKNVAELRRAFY

How the values were obtained:
[1] = system: untransfected HEK293 cells; experiment: Counterscreen, agonist mode, Ca2+ signal in untransfected HEK cells; type: cell-based; conditions: S3 Table, counterscreen titration; for pEC50: read-out: HEK AG Final EC50, unit inferred
Procedure: (§1) HEK cells were transfected with cDNA (400μg/ml DNA) encoding Sm.TRPMPZQ using a Maxcyte STX electroporation system and incubated overnight at 37°C. This system is uniquely capabable of large scale transfections providing one batch of cells ready for large scale HTS [30]. Briefly, the HEK cells were resuspended at 10^8/ml in Maxcyte electroporation buffer. Plasmid DNA was added to the cells in buffer to achieve a concentration of 400 μg/ml from a stock of 5mg/ml (in TE buffer). This mixture was loaded into the appropriate cassette, inserted into the machine, and cells electroporated. Cells were then frozen to provide a single supply of transfected cells for all subsequent assays. On the day of the assays, cells were thawed in a 37°C waterbath, and resuspended in DMEM + 10% FBS and counted. The cells were pelleted by centrifugation at 170xg for 5 minutes. The media was aspirated, and the remaining pellet was resuspended in 1x HBSS with 20 mM HEPES and 1% DMSO to achieve 1.33x10^6cells/ml. This cell suspension was then dispensed at 3 μl/well to the 1536 well plates (Greiner Bio One part 789072) at a density of 4,000 cells/well. Measurements of fluorescence intensity (λex = 470 nm, λem = 535 nm) were made using a FLIPR (Molecular Devices FLIPR Tetra). A read of basal fluorescence values was made (5s) prior to addition of compounds or controls (30 nl). In both ‘agonist’ and ‘antagonist mode’, the total assay volume was 6μl (1% DMSO). […] Ligand performance was categorized using an algorithm based on the activity of the entire dataset to define a ‘hit-cutoff’ parameter for both agonist-mode and antagonist-mode screening. Any compound with greater percent activation than this cutoff was assigned as ‘active’ prior to titration and counter-screening. Titration assays were executed using the same reagents, protocols and detection systems, done as 10-point concentration-response curves, performed in triplicate. Counter-screening was performed using untransfected HEK293 cells for comparison with results testing the same compounds effect on cells expressing Sm.TRPMPZQ, with ATP used as the positive control. For each compound, activity was plotted against compound concentration and data were fitted with a sigmoidal function. In order to be considered a hit at this stage a compound must achieve a EC50<5 μM for agonists and IC50 <5 μM for antagonists. All compounds selected for titration were subjected to LC-MS analysis to confirm mass and sample purity. ChemAxon (https://www.chemaxon.com) academic licensing was provided for the use of Instant JChem (ver. 15.10.12.0) to perform compound mining of the libraries utilized in this effort.

Sm.TRPMPZQ [2] = target: T1, Sm.TRPMPZQ (Schistosoma mansoni, UniProt A0A5K4F0X5); conditions: S3 Table, titration
[3] = system: untransfected HEK293 cells; experiment: Counterscreen, antagonist mode, Ca2+ signal in untransfected HEK cells; type: cell-based; conditions: S3 Table, counterscreen titration
Procedure: as §1

Sm.TRPMPZQ [4] = target: T1, Sm.TRPMPZQ; conditions: S3 Table; for Sm.TRPMPZQ AG Averaged Max % Response: titration

| Structure (SMILES) | HEK AG Averaged Max % Response [1] [%] | pEC50 [1] | Sm.TRPMPZQ ANT Averaged Max % Response (Sm.TRPMPZQ [2]) [%] | HEK ANT Averaged Max % Response [3] [%] | Sm.TRPMPZQ AG Averaged Max % Response (Sm.TRPMPZQ [4]) [%] | pEC50 (Sm.TRPMPZQ [4]; read-out: Sm.TRPMPZQ AG Final EC50, 10-point titration in triplicate, unit inferred) |
| --- | --- | --- | --- | --- | --- | --- |
| Clc1ccc(CSc2nccn2-c2cc(Cl)ccc2Cl)cc1 | 56.3391 | 4.94 | 58.5528 | 44.9029 | 24.1721 | – |
| COc1ccccc1C1CCN(C(=O)CSCc2cccc3ccccc23)CC1 | 11.239 | < 4.91 | 68.7144 | 34.8934 | 8.38 | – |
| CN(C(=O)c1ccc(Cl)cc1)c1ccc(Cl)cc1C(=O)c1ccccc1 | 67.3485 | 5.29 | 93.9179 | 56.4545 | 21.5053 | < 4.91 |
| N#Cc1ccc(S(=O)(=O)Oc2ccc(Oc3ccccc3)cc2)cc1 | 45.6256 | < 4.91 | 68.1394 | 76.1689 | 27.3158 | – |
| Cc1onc(-c2ccccc2)c1NC(=O)Nc1ccc(Oc2ncnc3cc(Cl)ccc23)nc1 | 17.1587 | < 4.91 | 68.3651 | 63.2315 | 4.6515 | – |
| O=C(CSc1nnc(C2CC2)n1-c1ccc(Cl)cc1)c1ccc(Cl)cc1 | 16.4523 | < 4.91 | 66.4037 | 30.6603 | 10.9034 | – |
| CCOC(=O)C1CCN(S(=O)(=O)c2ccc(CNC(=O)c3ccc(Cl)cc3)s2)CC1 | 11.0926 | < 4.91 | 79.6384 | 59.4596 | 4.125 | – |
| Cc1ccc(SC(=O)c2cc(C)n(-c3c(Cl)cc(Cl)cc3Cl)n2)cc1 | 16.7969 | < 4.91 | 51.1564 | 2.75 | 3.979 | – |
| OC(CCCc1ccccc1)(c1ccc(Cl)cc1)c1ccc(Cl)cc1 | 20.0472 | < 4.91 | 54.5461 | 50.5245 | 16.1821 | – |
| N#Cc1cnc(Sc2nnc(-c3cccs3)n2-c2ccc(Cl)cc2)nc1N | 25.6112 | < 4.91 | 92.0422 | 20.8001 | 9.525 | – |
| Cn1c(=O)c(Cc2ccccc2)c(OC(=O)c2ccccc2)c2ccccc21 | 9.728 | < 4.91 | 69.1131 | 15.1137 | 12.0938 | – |
| Cc1noc(C)c1C(=O)Nc1ccc(-n2nc(C(F)(F)F)cc2-c2cccs2)cc1 | 10.3502 | < 4.91 | 60.179 | 78.2697 | 8.837 | – |
| CCOC(=O)CCc1ccc(OCc2ccccc2)c(I)c1 | 19.7243 | < 4.91 | 55.1376 | 39.3914 | 12.3764 | – |
| O=C(NCc1cccs1)c1csc(Cc2c(Cl)cccc2Cl)n1 | 32.1402 | < 4.91 | 97.1918 | 94.1833 | 36.5206 | – |
| N#Cc1c(-c2cccs2)nc(Nc2ccccc2)[nH]c1=O | 3.643 | < 4.91 | 86.127 | 50.393 | 8.856 | – |
| CC(C)(C)c1ccc(-c2noc(CSc3ccccn3)n2)cc1 | 26.9092 | < 4.91 | 57.0798 | 53.8801 | 10.3082 | – |
